For the experiment, the system named is Mtb PrcAB-OG. The conditions noted are these: ratio of kinact/K (Mtb-20S OG) versus kobs/[I] (H20S β5).

Drawing on patent US20110118274A1, “PROTEASOME INHIBITORS AND THEIR USE IN TREATING PATHOGEN INFECTION AND CANCER” (CORNELL RESEARCH FOUNDATION, INC., priority 2007, published 2011), this text covers Selectivity for 2 compounds.

`O=c1oc(-c2cc3ccccc3s2)ns1`: the Selectivity came to 6.4. As to `O=c1oc(-c2cc3c(s2)CCCC3)ns1`, the Selectivity turned out to be 22.6.
